Compound potency records, mixed from different reports. Data source: NIAID ChemDB in PubChem.

Shared fields: growth or infection tests; species: Mycobacterium tuberculosis

Percent inhibition refers to the dose given; in toxicity tests it is the harm to the cells. A number after MIC or MFC names an inhibition level or a share of isolates. Lines come from different laboratories, so protocols vary. MIC bound comes from a single tested concentration. a–b is a range or a potency band. Blank or dashed fields: not listed here. ECn: concentration that inhibits the pathogen or its effect by n%.

structure	tested at	changes	cell line	endpoint	strain or isolate	read by	value
COc1cc(C(O)(CCN(C)C)C(c2cc(-c3ccc(C)cc3)cnc2OC)c2cccc(OC)c2F)cc(OC)n1				MIC90	H37Rv	resazurin	3.7 µM
O=C1C=C[C@@H](COC2OC(CO)C(O)C(O)C2O)O1				MIC	EMB-R		12.5 µg/mL
CCCCCNc1sc(-c2ccc(OCc3c(Cl)cccc3Cl)cc2)cc1C(=O)O				EC50	H37Rv	resazurin	52.55 µM
COc1cc(C2Cc3c(OC)cc(C(=O)O)cc3C2COC(C)=O)ccc1O	6.25 µg/mL			inhibition	ATCC 27294	resazurin	35%
Cc1ccc(NC(=O)c2cnc(C(C)(C)C)c(Cl)n2)cc1I				MIC	H37Rv		4 µg/mL
O=C(Cc1csc2nc(-c3ccc(Br)cc3)cn12)N/N=C1\SCC(=O)N1c1ccccc1	6.25 µg/mL			inhibition	H37Rv		2%
Cc1cc(C23CC4CC(CC(C4)C2)C3)nc2ccccc12				MIC	H37Rv		>6.25 µg/mL
S=C([S-])N(c1ccccc1)N(C(=S)[S-])c1ccccc1.[Na+].[Na+]	12.5 µg/mL			inhibition	H37Rv	BACTEC	15%
O=C(O)c1cc(-c2ccc(OCc3c(Cl)cccc3Cl)cc2)sc1NCc1ccc(Cl)cc1				EC50	H37Rv	resazurin	>128 µM
CN1C(=O)CS/C1=N\NC(=O)Cc1csc2nc(-c3ccc(Br)cc3)cn12				MIC	H37Rv		>6.25 µg/mL
CCCCNc1sc(-c2ccc(OCc3c(Cl)cccc3Cl)cc2)cc1C(=O)O				MIC	H37Rv	resazurin	7.7 µM
CCC(/C=C/C(C)[C@H]1CCC2C3CC=C4C[C@@H](O[C@@H]5O[C@H](CO)[C@@H](O)[C@H](O)[C@H]5O)CC[C@]4(C)C3CC[C@@]21C)C(C)(C)C	6.25 µg/mL			inhibition	ATCC 27294	resazurin	8%
CCCNc1nnc(-c2ccc(N)cc2)s1	6.25 µg/mL			inhibition	H37Rv	BACTEC	0%
O=C(Nc1sc(-c2ccc(OCc3c(Cl)cccc3Cl)cc2)cc1C(=O)O)c1cccs1				EC50	H37Rv	resazurin	70.03 µM
CCCCOc1ccc(NC(=S)Nc2ccc(OCCCC)cc2)cc1				MIC	H37Ra		0.1–0.5 µg/mL
O=C(Nc1ccc(F)cc1)c1cc([N+](=O)[O-])cc([N+](=O)[O-])c1				MIC	H37Rv (ATCC 27294)	broth dilution / turbidity / visual reading	>3.28 µM
O=Cc1coc2ccccc2c1=O				MIC	My 331/88		1000 µM
COc1cccc(C(=O)Nc2sc(-c3ccc(OCc4c(Cl)cccc4Cl)cc3)cc2C(=O)O)c1				MIC	H37Rv	resazurin	31.2 µM
Cc1ccc2occ(C=O)c(=O)c2c1				MIC	My 331/88		500 µM
Nc1ccc(-c2nnc(Nc3ccc(Cl)cc3)s2)cc1	6.25 µg/mL			inhibition	H37Rv	BACTEC	16%
COc1cc([C@@](O)(CCN(C)C)[C@@H](c2cc(-c3ccccc3)cnc2OC)c2cccc(OC)c2F)cc(OC)n1				MIC90	H37Rv	resazurin	10.5 µM
C[C@@H](NC(=O)c1cc([N+](=O)[O-])cc([N+](=O)[O-])c1)c1ccccc1		Rifampicin-resistant		MIC	RifR	broth dilution / turbidity / visual reading	<0.47 µM
CNc1cc(F)cc2c1[nH]c1ccc(-c3cccc(CC(=O)O)c3)cc12				MIC	H37Rv	resazurin	2 µg/mL
CC(=O)/C(N=Nc1ccc(-c2nnc(Nc3ccc(F)cc3)s2)cc1)=C(\C)O	6.25 µg/mL			inhibition	H37Rv	BACTEC	0%
COc1nc2ccc(Br)cc2cc1[C@@H](c1ccccc1)[C@@](O)(CCN(C)C)c1cccc2ccccc12				MIC	H37Rv		0.25 µg/mL
Nc1ccc(-c2nnc(Nc3ccc(F)cc3)s2)cc1	6.25 µg/mL			inhibition	H37Rv	BACTEC	57%
CCOc1ccc(N2C(=O)/C(=C/c3ccccn3)S/C2=N\c2ccccn2)cc1				MIC	H37Rv		≥25 µg/mL
CCC(C(=O)O)c1ccccc1				MIC			>1000 µM
CCOc1ccc(N2C(=O)/C(=C/c3cccnc3)S/C2=N\c2ccccn2)cc1				MIC	H37Rv		≥25 µg/mL
O=C(O)c1ccccc1N=N/C(=N\Nc1ccccc1C(=O)O)c1ccnc2ccccc12	12.5 µg/mL			inhibition	H37Rv	BACTEC	0%
NC(=O)c1cnccn1				MIC	H37Rv		8 µg/mL
CCCNC(=S)NNC(=O)Cc1csc2nc(-c3ccc(Br)cc3)cn12	6.25 µg/mL			inhibition	H37Rv		0%
Cc1cc(=O)c2ccc(Cl)c(C)c2[nH]1	12.5 µg/mL			inhibition	H37Rv	BACTEC	0%
CCCCCCCCCCCCC(C(=O)O)c1ccccc1				MIC			10 µM
CCCNc1nnc(-c2ccc(NC(=S)Nc3ccccc3)cc2)s1	6.25 µg/mL			inhibition	H37Rv	BACTEC	6%
O=C(Cc1csc2nc(-c3ccc(Br)cc3)cn12)NNC(=S)Nc1ccc(Br)cc1	6.25 µg/mL			inhibition	H37Rv		29%
COc1cc(C(O)(CCN(C)C)C(c2cc(-c3ccccc3C)cnc2OC)c2cccc(OC)c2F)cc(OC)n1				MIC90	H37Rv	resazurin	10 µM
NNC(=O)c1ccncc1				MIC	H37Rv		0.03 µg/mL
CC(C)CCOc1ccc(NC(=S)Nc2ccc(OCCC(C)C)cc2)cc1				MIC	Erdman		<1 µg/mL
Cc1cccc(NC(=O)c2cnccn2)c1Br				MIC	H37Rv		2 µg/mL
CNC(=S)NNC(=O)Cc1csc2nc(-c3ccc(Br)cc3)cn12				MIC	H37Rv		>6.25 µg/mL
CCCCCCCCCCCCCCCCCCC(CC)C(=O)O				MIC			>1000 µM
O=C(Nc1sc(-c2ccc(OCc3c(Cl)cccc3Cl)cc2)cc1C(=O)O)c1ccccc1				EC50	H37Rv	resazurin	85.74 µM
Cc1cc2nc3ccc(N=Nc4ccc(N(C)C)cc4)cc3n(-c3ccccc3)c-2cc1=N				MIC	H37Rv		0.2 µg/mL
Cc1ccc(NC(=O)c2cnc(C(C)(C)C)cn2)cc1I				MIC	H37Rv		8 µg/mL
Cc1ccc(-n2c(=S)[nH]c3ccccc3c2=O)cc1F				MIC bound	H37Rv	BACTEC	>12.5 µg/mL
CCOc1ccc(N2C(=O)/C(=C\C=C\c3ccccc3)S/C2=N\c2ccccn2)cc1				MIC	H37Rv		≥25 µg/mL
CCCCCc1cc(OC)c2ccccc2n1				MIC	MT1		6.25 µg/mL
C=CCn1c(O)c(/C=C2\C=CC(=O)c3ncccc32)s/c1=N\c1nc2ccccc2s1				MIC	H37Rv		12.5 µg/mL
Clc1ccc(/C(=C/c2ccccc2)Cn2ccnc2)cc1	6.25 µg/mL			inhibition	H37Rv	resazurin	99%
COc1cc(C(O)(CCN(C)C)C(c2cc(-c3ccccc3)cnc2OC)c2cccc(OC)c2F)cc(OC)n1				MIC90	H37Rv	resazurin	5.7 µM
CCSc1nc(Cl)c(C#N)c(-c2ccco2)n1				MIC	H37Rv		1.56 µg/mL
COc1cc(OC)c2nc3occc3c(OC)c2c1				MIC bound	H37Rv	BACTEC	>12.8 µg/mL
CCCCCCCCCCCCCCCCCCNC(=S)NCCCC(=O)OC				MIC	H37Ra		>20 µg/mL
CC1=C(CCC(=O)O)c2cc3nc(cc4[nH]c(cc5[nH]c(cc1n2)c(C)c5C(C)O)c(C)c4C(C)O)C(C)=C3CCC(=O)O				MIC bound	H37Rv	BACTEC	>12.8 µg/mL
COc1ccc(CCC2CCc3ccccc3N2C)cc1OC				MIC	MT6		>322 µg/mL
N#Cc1c2c(c(Nc3ccc(Cl)cc3)n3c1nc1ccccc13)CCCC2				MIC bound	H37Rv	resazurin	>6.25 µg/mL
CC(=O)/C(N=Nc1ccc(-c2nnc(Nc3ccccc3)s2)cc1)=C(\C)O	6.25 µg/mL			inhibition	H37Rv	BACTEC	0%
CC(=O)C1=C(O)C2(C)c3c(O)c(C)c(O)c(C(C)=O)c3OC2CC1=O			VERO	MIC	H37Rv	BACTEC	>12.5 µg/mL
O=C(Nc1sc(-c2ccc(OCc3c(Cl)cccc3Cl)cc2)cc1C(=O)O)c1ccccc1Cl				EC50	H37Rv	resazurin	88.56 µM
CN[C@@H]1[C@H](O[C@H]2[C@H](O[C@H]3[C@H](O)[C@@H](O)[C@H](N=C(N)N)[C@@H](O)[C@@H]3N=C(N)N)O[C@@H](C)[C@]2(O)C=O)O[C@@H](CO)[C@H](O)[C@H]1O				MIC	H37Rv		0.4 µg/mL
CNC(=O)NC1NC(=O)N(C)C1=O				MIC bound	H37Rv	BACTEC	>12.8 µg/mL
COc1cc([C@](O)(CCN(C)C)[C@@H](c2cc(-c3ccc(Cl)cc3)cnc2OC)c2cccc(OC)c2F)cc(OC)n1				MIC90	H37Rv	resazurin	0.76 µM
O=Nc1c(O)cc(O)c2ccccc12	12.5 µg/mL			inhibition	H37Rv	BACTEC	-5%
O=C(Nc1sc(-c2ccc(OCc3ccc(Cl)c(Cl)c3)cc2)cc1C(=O)O)c1ccc(Cl)cc1				MIC	H37Rv	resazurin	110.2 µM
C=CCN1C(=O)/C(=C/c2ccc(O)cc2)S/C1=N\c1nc2ccccc2s1				MIC	H37Rv		≥25 µg/mL
O=C(Cc1csc2nc(-c3ccc(Br)cc3)cn12)NNC(=S)Nc1ccc(Cl)cc1				MIC	H37Rv		>6.25 µg/mL
CCOC(=O)[C@H]1O[C@@H]([C@@]2(C)O[C@]3(O[C@]4(C=C[C@H]3O)O[C@H]([C@@H](C)C(=O)[C@@H](C)[C@@H](O)[C@H](C)C[C@H](C)c3c(Cl)cc(C)c(O)c3C(=O)O)[C@@H](C)C[C@H]4C)[C@H](C)[C@H]2OC)C[C@H]1O				MIC	EMB-R		6.3 µg/mL
CSc1nc(Cl)c(C#N)c(-c2ccc(F)cc2F)n1				MIC	H37Rv		>25 µg/mL
O=C(c1ccccc1)c1c(CO[N+](=O)[O-])n([O-])c2ccccc2[n+]1=O				MIC	TAC-R		6.3 µg/mL
CCOc1ccc(N2C(=O)/C(=C/c3cccs3)S/C2=N\c2ccccn2)cc1				MIC	H37Rv		≥25 µg/mL
COC(=O)c1c(OC)cc2cc3c(c(O)c2c1C)C(=O)[C@]1(O)C(=O)C=C(OC)[C@@H](O)[C@]1(O)C3=O				MIC	H37Rv	BACTEC	≥12.5 µg/mL
O=C(Cc1csc2nc(-c3ccc(Br)cc3)cn12)N/N=C1\SCC(=O)N1c1ccc(Cl)cc1	6.25 µg/mL			inhibition	H37Rv		0%
C[C@H]1[C@H](O)[C@@H](C)/C=C/C=C/C=C/C=C/C=C/C=C/C=C/[C@H](O[C@@H]2O[C@H](C)[C@@H](O)[C@H](N)[C@@H]2O)C[C@@H]2O[C@](O)(C[C@@H](O)C[C@@H](O)CC[C@H](O)[C@@H](O)C[C@@H](O)CC(=O)O[C@H]1C)C[C@H](O)[C@H]2C(=O)O				MIC bound	H37Rv	BACTEC	>12.5 µg/mL
CCCCSc1ccc(NC(=S)Nc2ccc(SCCCC)cc2)cc1				MIC	H37Ra		<0.1 µg/mL
O=C1NC(CN2CCCCC2)C(=O)NC1CN1CCCCC1				MIC	H37Rv	BACTEC	≥12.5 µg/mL
CCC(/C=C/C(C)[C@H]1CCC2C3CC=C4C[C@@H](O[C@@H]5O[C@H](COC(C)=O)[C@@H](OC(C)=O)[C@H](OC(C)=O)[C@H]5OC(C)=O)CC[C@]4(C)C3CC[C@@]21C)C(C)(C)C	6.25 µg/mL			inhibition	ATCC 27294	resazurin	30%
Cc1cc(NN)nc2n[nH]c(N)c12				MIC	H37Rv	BACTEC	≥12.5 µg/mL
CC(=O)Nc1ccc(/C=N/NC(N)=S)cc1				MIC90	14 strains		0.25 µg/mL
CSc1cc(Br)ccc1-n1c(C(=O)c2ccccc2)c(SC)n(-c2ccccc2)c1=O				MIC bound	H37Rv	BACTEC	>12.5 µg/mL
CO[C@H]1/C=C/O[C@@]2(C)Oc3c(C)c(O)c4c(c3C2=O)C(=O)C=C(NC(=O)/C(C)=C\C=C\[C@H](C)[C@H](O)[C@@H](C)[C@@H](O)[C@@H](C)[C@H](OC(C)=O)[C@@H]1C)C4=O				MIC	H37RV ATCC9360		0.05 µg/mL

11 of the rows above, restated:

structure	tested at	changes	cell line	endpoint	strain or isolate	read by	value
Nc1ccc(-c2nnc(Nc3ccc(F)cc3)s2)cc1	6.25 µg/mL			inhibition	H37Rv	BACTEC	57%
COc1cc([C@](O)(CCN(C)C)[C@@H](c2cc(-c3ccc(Cl)cc3)cnc2OC)c2cccc(OC)c2F)cc(OC)n1				MIC90	H37Rv	resazurin	0.76 µM
COC(=O)c1c(OC)cc2cc3c(c(O)c2c1C)C(=O)[C@]1(O)C(=O)C=C(OC)[C@@H](O)[C@]1(O)C3=O				MIC	H37Rv	BACTEC	≥12.5 µg/mL
CCCCCCCCCCCCC(C(=O)O)c1ccccc1				MIC			10 µM
CCC(C(=O)O)c1ccccc1				MIC			>1000 µM
Cc1ccc(NC(=O)c2cnc(C(C)(C)C)c(Cl)n2)cc1I				MIC	H37Rv		4 µg/mL
CCSc1nc(Cl)c(C#N)c(-c2ccco2)n1				MIC	H37Rv		1.56 µg/mL
O=Cc1coc2ccccc2c1=O				MIC	My 331/88		1000 µM
O=C(Cc1csc2nc(-c3ccc(Br)cc3)cn12)NNC(=S)Nc1ccc(Cl)cc1				MIC	H37Rv		>6.25 µg/mL
CCOc1ccc(N2C(=O)/C(=C/c3cccnc3)S/C2=N\c2ccccn2)cc1				MIC	H37Rv		≥25 µg/mL
O=C(Nc1ccc(F)cc1)c1cc([N+](=O)[O-])cc([N+](=O)[O-])c1				MIC	H37Rv (ATCC 27294)	broth dilution / turbidity / visual reading	>3.28 µM